Test results: patent US20210389324

How the values were obtained:
[1] = system: CFP-MYH6/7-YFP (23-residue)
[2] = system: CFP-MYH6/7-YFP (16-residue)

Question: Which “cleavage of CFP-YFP substrate” value [1] does the source give for “Recombinant MERS-CoV-2 Papain-like Protease” here?
Answer: Its value is “The MERS PLpro showed minor cleavage of the cardiac myosin sequences”.

Question: And the “cleavage of CFP-YFP substrate” value [2]?
Answer: The value was “The MERS PLpro showed minor cleavage of the cardiac myosin sequences”.
